Literature values, collected in US6346251B1 (priority 1999, dated 2002).
Read-outs that look alike come from different tables or passages of the source.

Assays:
[1] = test system: human epidermoid cells, virally infected with HSV-2; details: human epidermoid cells infected with HSV-2; for hyperactive protein synthesis inhibited: by ~5 ng/ml; for Trichothecene Concentrations, Protein Synthesis Inhibition PIC100: concentration inhibiting ~100% without toxicity; for Trichothecene Concentrations, Protein Synthesis Inhibition 50% / Trichothecene Concentrations, Protein Synthesis Inhibition 80% (PIC80) / Trichothecene Concentrations, Protein Synthesis Inhibition 85% (PIC85) / Trichothecene Concentrations, Protein Synthesis Inhibition 90% (PIC90): data from Okazaki text, graph or linear interpolation
human epidermoid cells = details: for Trichothecene Concentrations, PIC100 max: maximum concentration that inhibits ~100% without reducing cell viability; for safe level: non toxic level used for worst case blood scenario

In the case of Roridin A, the “hyperactive protein synthesis inhibited” value [1] is listed as 100%, the “Trichothecene Concentrations, Protein Synthesis Inhibition PIC100” value [1] is listed as 5.0 ng/mL and the “Trichothecene Concentrations, Protein Synthesis Inhibition PIC100” value ([1]; listed as Roridin) is listed as “(PIC100 = 5 ng/ml of skin volume)”. The “Trichothecene Concentrations, Protein Synthesis Inhibition 50%” value [1] was 1.4 ng/mL, the “Trichothecene Concentrations, Protein Synthesis Inhibition 80% (PIC80)” value [1] was 2.0 ng/mL and the “Trichothecene Concentrations, Protein Synthesis Inhibition 85% (PIC85)” value [1] was 2.5 ng/mL. For the same substance, the “Trichothecene Concentrations, Protein Synthesis Inhibition 90% (PIC90)” value [1] was 3.3 ng/mL, the “Trichothecene Concentrations, PIC100 max” value (human epidermoid cells) was 10 ng/mL and the safe level (human epidermoid cells) was 10 ng/mL.
For Satratoxin G, the “hyperactive protein synthesis inhibited” value [1] is listed as 100%, the “Trichothecene Concentrations, Protein Synthesis Inhibition PIC100” value [1] is listed as 5.0 ng/mL and the “Trichothecene Concentrations, Protein Synthesis Inhibition PIC100” value ([1]; listed as Satratoxin) is listed as “(PIC100 = 5 ng/ml of skin volume)”. For the same substance, the “Trichothecene Concentrations, Protein Synthesis Inhibition 50%” value [1] was 1.5 ng/mL, the “Trichothecene Concentrations, Protein Synthesis Inhibition 80% (PIC80)” value [1] was 2.4 ng/mL and the “Trichothecene Concentrations, Protein Synthesis Inhibition 85% (PIC85)” value [1] was 3.2 ng/mL. For the same substance, the “Trichothecene Concentrations, Protein Synthesis Inhibition 90% (PIC90)” value [1] was 3.9 ng/mL, the “Trichothecene Concentrations, PIC100 max” value (human epidermoid cells) was 10 ng/mL and the safe level (human epidermoid cells) was 10 ng/mL.
